Reference: patent US9750814B2, “Polypeptides to inhibit epstein barr viral protein BHRF1 and B cell lymphoma family proteins” (priority 2014, dated 2017)

B1: Index 21: SEQ ID NO: 113; computational precursor for BbpD04 (protein)
chain: GFDWKKVLDKAKDLAENDVREAKQKLEEFYKKAMKLDLTQEMRRKLMLEWIAAMLMAIGDIFNAIEQGKQEADKLKKLGKVLSQLLDELKRRLEELKEEAALKAHDFGREFELKLLFG
modifications: optionally absent
Log2 Enrichment Ratio: Expression (FACS sort for cells expressing surface protein): 0.49 | Log2 Enrichment Ratio: High Expression (FACS sort for the 2% of cells with highest expression): −1.20
